Assay results: PMC4029521
For part of these data: Where a protein sequence is shown, tags need not be part of it. For part of these data: For at least one entry, the source does not settle the construct or the ends of the probe.

Columns and labels:
[1] = test system: T1, AirR (Staphylococcus aureus NCTC8325); experiment: EMSA; details: AirR 0.3-1.2 uM, probe 2 nM, recombinant protein, residues 1-207, label: digoxigenin, probe letters rebuilt from the primers and the genome
T1 sequence (looked up): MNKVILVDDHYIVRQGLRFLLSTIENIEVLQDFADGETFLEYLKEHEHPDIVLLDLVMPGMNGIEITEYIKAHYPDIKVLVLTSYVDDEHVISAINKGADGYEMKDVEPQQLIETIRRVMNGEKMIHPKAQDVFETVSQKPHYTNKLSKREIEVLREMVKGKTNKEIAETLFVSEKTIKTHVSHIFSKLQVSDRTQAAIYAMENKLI

[2] = test system: AirR-P (phosphorylated AirR) (Staphylococcus aureus NCTC8325); experiment: EMSA; details: phosphorylated by acetyl phosphate or AirS, no obvious difference from unphosphorylated AirR; recombinant protein; residues 1-207; label: digoxigenin; probe letters rebuilt from the primers and the genome

| Sequence | binding result [1] | binding result ([1]; competed by 50x unlabeled probe) | binding result [2] |
| --- | --- | --- | --- |
| GTCATTTCGTTTTCCTCCAATGATATATCAGGGTTTGCTACCTTAATATAAATTAATATTGATTTAGTCCTATTGTTAATTGATTTATTCGCATCTTTGAATCTTAATAGTATCACATTTTAATGCTATTTTGCATTTTAAAAACGAGGACTTATGTGTCTGTATCTATGTTGATTCATTTATAATCAGAACAATATTCCCTTCTATTTTATTCCTAATTCAAATTGAAATCTATAGCTGATATCACTGTGATATTCTAGCTAATTTTTAAAAAGTCATGTAAAATTGATATAAACATTAGTGAGTATAAAAGGAGTTTG (double strand) [ddl promoter (p-ddl)] | binds | – | – |
| TTTCCATTATTTACCTCCCTTAAAAATTTTCATTAAAATTGGTATTATATATATAGTATTTACATATTACATATCGTTTAAACAATTAATTACTTTTAAACCGCATTATTTTCGCCTTTTTATTTATATGAAATTAAAAATAATTATACTCTAAAGTAGTAATAGTTTGTGAAATGAGTATCAATCTTAATATTTTCTTTATTTAAAAAAATGATTGTCTAGTTTGTATCTCTCTGAAGATTTGGCAATAAATAAAAGCCGATAACCGTATAATGATTATCGACTTAAAGTTTATGTGGCATTTTTTACTTTTGTAATTTCAGGTGAGTTAGATGA (double strand) [cap promoter (p-cap5A)] | – | binds | binds |
